Measured values taken from ChEMBL document CHEMBL4715853 (J Med Chem, 2020).

System: SARS-CoV
Assay: Antiviral activity against SARS-CoV MA15 infected in Balb/c mouse assessed as protection against virus-induced lethal infection by measuring mouse survival rate at 30 mg/kg, po via gavage administered for 9 days starting from 10 hrs prior to viral infection relative to control
Conditions: time 9 day

In the case of CN(C)C(=O)COC(=O)Cc1ccc(OC(=O)c2ccc(NC(=N)N)cc2)cc1, the Survival is reported as 60%.
